Anti-infective test results gathered from many reports (values: NIAID ChemDB through PubChem).

All rows: tests in culture; organism: Mycobacterium tuberculosis

An empty or dashed field is not shown.

| smiles | read-out | mutations | strain or isolate | method | tested at | result |
|---|---|---|---|---|---|---|
| Clc1ccc(-n2ncc(C(c3ccccc3)n3ccnc3)c2-c2ccccc2)cc1 | MIC50 |  | ATCC 27294 |  |  | 10.7 µM |
| CC(NC(=O)c1cccc2c1Oc1ccccc1S2)C(=O)O | inhibition |  | H37Rv | BACTEC | 12.5 µg/mL | -1% |
| NS(=O)(=O)c1ccc(CN2CCCC[C@H]2[C@@H](O)c2cc(C(F)(F)F)nc3c(C(F)(F)F)cccc23)cc1 | MIC |  |  |  |  | 22 µM |
| CC(=O)/C(N=Nc1ccc(C(=O)N/N=C/c2ccccc2F)cc1)=C(\C)O | EC50 |  | H37Rv |  |  | >12.5 µg/mL |
| CC1COc2c(N3CCC4(CC3)OCCO4)c(F)c([N+](=O)[O-])c3c(=O)c(C(=O)O)cn1c23 | MIC99 |  | MDR-TB | agar |  | 0.09 µM |
| CCc1c2c(nc3ccc(OCc4cc(OC)ccc4Br)cc13)-c1cc3c(c(=O)n1C2)COC(=O)C3(O)CC | MIC |  | H37Rv | resazurin |  | 26.3 µM |
| C/C=C/C1=CC=C/C(=C2\C(=O)CNC2=O)O1 | MIC | p-aminosalicylic acid-resistant | H37Rv | resazurin / visual reading |  | 3.1 µg/mL |
| CC1CCN(C(=S)SCN2C(=O)c3ccccc3S2(=O)=O)CC1 | inhibition |  | H37Rv |  | 6.25 µg/mL | 100% |
| NC(=O)CN1CCCC[C@H]1[C@@H](O)c1cc(C(F)(F)F)nc2c(C(F)(F)F)cccc12 | MIC |  |  |  |  | >128 µM |
| O=C(Cc1cccc(O)c1)N1CCN(S(=O)(=O)c2cccc3cnccc23)CC1 | MIC90 | Inosine monophosphate dehydrogenase-resistant | SRMV2.6 | resazurin |  | >250 µM |
| CCOc1ccc(NC(=S)Nc2ccc(OCC(C)C)cc2)cc1 | MIC |  | 76 |  |  | 16.6 µg/mL |
| CC1CCCCN1C(=S)SCN1C(=O)c2ccccc2S1(=O)=O | inhibition |  | H37Rv |  | 6.25 µg/mL | 99% |
| c1ccc(-c2c(C(c3ccccc3)n3ccnc3)cnn2-c2ccccc2)cc1 | MIC50 |  | ATCC 27294 |  |  | 69.9 µM |
| NCC[C@H](O)C(=O)N[C@@H]1C[C@H](N)[C@@H](O[C@H]2O[C@H](CN)[C@@H](O)[C@H](O)[C@H]2O)[C@H](O)[C@H]1O[C@H]1O[C@H](CO)[C@@H](O)[C@H](N)[C@H]1O | MIC |  | 1R |  |  | 2.5 µg/mL |
| CC1(C)Cc2ccc(OCC3CCN(c4ccc(OC[C@@]5(C)Cn6cc([N+](=O)[O-])nc6O5)cc4)CC3)cc2O1 | MIC |  | H37Rv |  |  | 0.024 µg/mL |
| Fc1ccc(-c2c(C(c3ccccc3)n3ccnc3)cnn2-c2ccccc2)cc1 | MIC50 |  | ATCC 35820 (streptomycin-resistant) |  |  | ≥100 µM |
| C=C1C(=O)O[C@@H]2C(O)[C@@H](C)[C@@H]3C=CC(=O)[C@@]3(C)[C@H](OC(=O)C=C(C)C)[C@H]12 | MIC |  | H37Rv | BACTEC |  | ≥12.5 µg/mL |
| Clc1ccc(-n2ncc(C(c3ccccc3)n3ccnc3)c2-c2ccccc2)c(Cl)c1 | MIC50 |  | ATCC 35837 (ethambutol-resistant) |  |  | 64.2 µM |
| CC(=O)/C(N=Nc1ccc(C(=O)N/N=C/c2ccc(O)cc2)cc1)=C(\C)O | EC50 |  | H37Rv |  |  | <12.5 µg/mL |
| COc1c2occc2c(CCl)c2ccc(=O)oc12 | MIC bound |  | H37Rv | BACTEC |  | >12.5 µg/mL |
| Fc1ccc(-c2c(C(c3ccccc3)n3ccnc3)cnn2-c2ccc(F)cc2)cc1 | MIC50 |  | ATCC 35837 (ethambutol-resistant) |  |  | ≥100 µM |
| O[C@@H](c1cc(C(F)(F)F)nc2c(C(F)(F)F)cccc12)[C@@H]1CCCCN1Cc1ccncc1 | MIC |  |  |  |  | 22 µM |
| O=C(CC1CCCCC1)N1CCN(S(=O)(=O)c2cccc3cnccc23)CC1 | MIC90 | Inosine monophosphate dehydrogenase-resistant | SRMV2.6 | resazurin |  | >250 µM |
| CCCCOc1ccc(NC(=S)Nc2ccc(N(C)C)cc2)cc1 | MIC |  | H37RV #302 |  |  | 2 µg/mL |
| Cc1ccc(NC2=CC(=O)C(=O)c3ccccc32)cc1 | MIC |  | H37Rv | resazurin |  | ≤0.1 µg/mL |
| CO[C@H]1/C=C/O[C@@]2(C)Oc3c(C)c(O)c4c(=O)c(c5oc6cc(N7CCN(CC=C(C)C)CC7)cc(=O)c6nc5c4c3=C2O)NC(=O)/C(C)=C\C=C\[C@H](C)[C@H](O)[C@@H](C)[C@@H](O)[C@@H](C)[C@H](OC(C)=O)[C@@H]1C | MIC |  | H37Rv |  |  | 0.035 µg/mL |
| NNC(=O)c1ccncc1 | MIC90 |  | ATCC 35820 (streptomycin-resistant) |  |  | 1.1 µM |
| CCc1c2c(nc3ccc(OCc4cc(F)cc(Cl)c4)cc13)-c1cc3c(c(=O)n1C2)COC(=O)C3(O)CC | MIC |  | H37Rv | resazurin |  | 5.84 µM |
| Cc1cc(-c2cc3c(cc2F)c(=O)c(C(=O)O)cn3C2CC2)cc(C)n1 | MIC |  | H37Rv |  |  | 4 µg/mL |
| COC(=O)c1ccc(C(=O)OC)c2nc3ccccc3nc12 | inhibition |  | H37Rv | BACTEC | 12.5 µg/mL | 10% |
| CC(C)OC(=O)c1cc[n+](CC(=O)c2ccc(F)cc2)cc1.[Br-] | MIC | XDR |  | resazurin |  | 16 µg/mL |
| C[C@H]1COc2c(N3CCN(C)C(c4ccccc4)C3)c(F)cc3c(=O)c(C(=O)O)cn1c23 | MIC99 |  |  | agar |  | 14.29 µM |
| Nc1ccc(C(=O)N/N=C/c2ccc(O)cc2)cc1 | MIC |  | H37Rv |  |  | >12.5 µg/mL |
| COc1cc2c(cc1OC)-c1c3c(cc4c1[C@@H](C2)N(C)CC4)OCO3 | MIC bound |  | H37Rv | BACTEC |  | >12.5 µg/mL |
| CO[C@H]1/C=C/O[C@@]2(C)Oc3c(C)c(O)c4c(=O)c(c5oc6cc(N7CCCCC7)cc(=O)c6nc5c4c3=C2O)NC(=O)/C(C)=C\C=C\[C@H](C)[C@H](O)[C@@H](C)[C@@H](O)[C@@H](C)[C@H](OC(C)=O)[C@@H]1C | MIC |  | H37Rv |  |  | 0.035 µg/mL |
| C[n+]1cc2c(cn3c4ccccc4ccc23)c2ccccc21 | MIC | Ethionamide-resistant | H37Rv | resazurin / visual reading |  | 6.2 µg/mL |
| CC1(C(=O)N2CCN(S(=O)(=O)c3cccc4cnccc34)CC2)CCCCC1 | MIC90 | Inosine monophosphate dehydrogenase-resistant | SRMV2.6 | resazurin |  | >250 µM |
| CO[C@H]1/C=C/O[C@@]2(C)Oc3c(C)c(O)c4c(O)c(c5c(c4c3C2=O)NC2(CCN(CC(C)C)CC2)N=5)=NC(=O)/C(C)=C\C=C\[C@H](C)[C@H](O)[C@@H](C)[C@@H](O)[C@@H](C)[C@H](OC(C)=O)[C@@H]1C | MIC |  | Strain 5 (RIF-resistant) |  |  | 10 µg/mL |
| O=c1cc(-c2ccc(O)c(O)c2-c2c(O)cc(O)c3c(=O)cc(-c4ccc(O)cc4)oc23)oc2cc(O)cc(O)c12 | MIC |  | MTCS2 | resazurin |  | 19.53 µg/mL |
| CCOC(=O)c1cc(=O)c2c(ccc3cc(OC)ccc32)[nH]1 | MIC bound |  | H37Rv | BACTEC |  | >12.5 µg/mL |
| NNC(=O)c1ccncc1 | MIC |  | 6S |  |  | 0.1 µg/mL |
| CC1(c2ccc3c(c2)OCO3)OC(CCl)CS1 | MIC bound |  | H37Rv | BACTEC |  | >12.5 µg/mL |
| Cc1cc2c(S(=O)(=O)N3CCN(C(=O)C4CCCCC4)CC3)cccc2cn1 | MIC90 |  | H37Rv | resazurin |  | >100 µM |
| S=C(S)NNc1ccccc1 | MIC |  | CS-R |  |  | >12.5 µg/mL |
| O=[N+]([O-])c1cn2c(n1)O[C@@H](COc1ccc(N3CCC(COCc4ccc(OC(F)(F)F)cc4)CC3)cc1)C2 | MIC |  | H37Rv |  |  | 0.0015 µg/mL |
| C[C@H]1COc2c(N3CCc4ccccc4C3C(=O)NC(C)(C)C)c(F)cc3c(=O)c(C(=O)O)cn1c23 | MIC99 |  | MDR-TB | agar |  | 3.16 µM |
| CCCCN(CCCC)CCc1c[nH]c2ccccc12 | MIC |  | MTCS2 | resazurin |  | 19.53 µg/mL |
| COc1ccc2ncc(COC(=O)NCCCl)c(COC(=O)NCCCl)c2c1 | inhibition |  | H37Rv | BACTEC | 12.5 µg/mL | 43% |
| CCc1c2c(nc3ccc(OCc4ccc(I)cc4)cc13)-c1cc3c(c(=O)n1C2)COC(=O)C3(O)CC | MIC | Extensively drug-resistant | XDR | resazurin |  | 20.55 µM |
| CCN(CC)C(=S)SCN1C(=O)c2ccccc2S1(=O)=O | inhibition |  | H37Rv |  | 6.25 µg/mL | 100% |
| C[C@]1(COc2ccc(-c3ccc(N4CCN(Cc5ccc(Cl)cc5)CC4)cc3)cc2)Cn2cc([N+](=O)[O-])nc2O1 | MIC |  | H37Rv |  |  | 0.1 µg/mL |
| O=C(Nn1c(=S)[nH][nH]c1=S)c1ccccc1 | MIC bound |  | H37Rv | BACTEC |  | >12.5 µg/mL |
| CCC(C)C(N)C(=O)O | MIC |  | H37Ra | resazurin / visual reading |  | >100 µg/mL |
| Cc1ccc(N)cc1F | inhibition |  | H37Rv | BACTEC | 12.5 µg/mL | 0% |
| CCc1c2c(nc3ccc(OCc4ccc(F)c(F)c4)cc13)-c1cc3c(c(=O)n1C2)COC(=O)C3(O)CC | MIC |  | H37Rv | resazurin |  | 24.1 µM |
| CC(=O)/C(N=Nc1ccc(C(=O)N/N=C/c2ccc(N(C)C)cc2)cc1)=C(\C)O | EC50 |  | H37Rv |  |  | >12.5 µg/mL |
| COC(=O)/C=C(/C=C1\C(C#N)=C(N)N(c2ccc(Cl)cc2)C1(C)/C(=C/C(=O)OC)C(=O)OC)C(=O)OC | MIC bound |  | H37Rv | resazurin |  | >6.25 µg/mL |
| CN(CCCC12CCC(c3ccccc31)c1ccccc12)C(=S)SCN1C(=O)c2ccccc2S1(=O)=O | inhibition |  | H37Rv |  | 6.25 µg/mL | 6% |
| CC(=O)NNc1nc(C)cs1.Cl | inhibition |  | H37Rv | BACTEC | 12.5 µg/mL | 0% |
| Clc1ccc(-c2c(C(c3ccccc3)n3ccnc3)cnn2-c2ccc(Cl)cc2Cl)cc1 | MIC90 |  | ATCC 27294 |  |  | 25.3 µM |
| COc1ccc2c(c1)[n+]([O-])c(S(=O)(=O)c1ccc(C)cc1)c(N)[n+]2[O-] | inhibition |  | H37Rv | BACTEC | 12.5 µg/mL | 98% |
| CC1CCCCC1C(=O)N1CCN(S(=O)(=O)c2cccc3cnccc23)CC1 | MIC90 | Inosine monophosphate dehydrogenase-resistant | SRMV2.6 | resazurin |  | >250 µM |
| CC1COc2c(N3CCN(C(=O)c4ccco4)CC3)c(F)c([N+](=O)[O-])c3c(=O)c(C(=O)O)cn1c23 | MIC99 |  |  | agar |  | 0.8 µM |
| C[C@]1(COc2ccc(N3CCC(Cc4ccc(OC(F)(F)F)cc4)CC3)nc2)Cn2cc([N+](=O)[O-])nc2O1 | MIC |  | H37Rv |  |  | 0.006 µg/mL |
| O=C1c2ccccc2S(=O)(=O)N1CSC(=S)N1CCN(c2ccccc2)CC1 | inhibition |  | H37Rv |  | 6.25 µg/mL | 0% |
| CN[C@@H]1[C@H](O[C@H]2[C@H](O[C@H]3[C@H](O)[C@@H](O)[C@H](N=C(N)N)[C@@H](O)[C@@H]3N=C(N)N)O[C@@H](C)[C@]2(O)C=O)O[C@@H](CO)[C@H](O)[C@H]1O | MIC50 |  | ATCC 35820 (streptomycin-resistant) |  |  | ≥100 µM |
| CC1=NN(c2ccccc2)C(=O)C1N=Nc1ccc(S(=O)(=O)Nc2cc(C)nc(C)n2)cc1 | MIC |  | H37Rv | BACTEC |  | ≥12.5 µg/mL |
| CO[C@H]1/C=C/O[C@@]2(C)Oc3c(C)c(=O)c4c(O)c(c5oc6cccc(O[Si](C)(C)C(C)(C)C)c6nc5c4c3C2=O)NC(=O)/C(C)=C\C=C\[C@H](C)[C@H](O)[C@@H](C)[C@@H](O)[C@@H](C)[C@H](OC(C)=O)[C@@H]1C | MIC |  | H37Rv |  |  | 0.035 µg/mL |
| CC(O)(c1ccncc1)c1cc2ccccc2n1S(=O)(=O)c1ccccc1 | inhibition |  | H37Rv |  | 6.25 µg/mL | 9% |
| CC(C)(C)OC(=O)N1CCCC[C@H]1[C@@H](O)c1cc(C(F)(F)F)nc2c(C(F)(F)F)cccc12 | MIC |  |  |  |  | 61 µM |
| COc1cccc2c1C(=O)c1c(O)c3c(c(O)c1C2=O)C[C@@](O)(/C(C)=N/NC(=O)c1ccc(Cl)cc1)C[C@H]3O[C@H]1C[C@H](N)[C@H](O)[C@H](C)O1 | MIC |  | INH-r |  |  | >12.5 µg/mL |
| Clc1ccc(-n2ncc(C(c3ccccc3)n3ccnc3)c2-c2ccccc2Cl)c(Cl)c1 | MIC90 |  | ATCC 35837 (ethambutol-resistant) |  |  | >100 µM |
| Cc1ccc(S(=O)(=O)NNC(=O)c2ccc[nH]2)cc1 | inhibition |  | H37Rv | BACTEC | 12.5 µg/mL | 29% |
| CN[C@@H]1[C@H](O[C@H]2[C@H](O[C@H]3[C@H](O)[C@@H](O)[C@H](N=C(N)N)[C@@H](O)[C@@H]3N=C(N)N)O[C@@H](C)[C@]2(O)C=O)O[C@@H](CO)[C@H](O)[C@H]1O | MIC |  | H37RV #164 |  |  | 3.9 µg/mL |
| O=S(=O)(O)c1cc(O)c(O)c2n[nH]nc12 | MIC bound |  | H37Rv | resazurin |  | >6.25 µg/mL |
| CO[C@H]1/C=C/O[C@@]2(C)Oc3c(C)c(O)c4c(=O)c(c5oc6cc(N(C)CC(C)C)cc(=O)c6nc5c4c3=C2O)NC(=O)/C(C)=C\C=C\[C@H](C)[C@H](O)[C@@H](C)[C@@H](O)[C@@H](C)[C@H](OC(C)=O)[C@@H]1C | MIC |  | H37Rv |  |  | 0.008 µg/mL |

MIC bound comes from a single tested concentration. MIC50, MIC90 and the like: level of inhibition, or share of isolates inhibited. ECn: concentration that inhibits the pathogen or its effect by n%. Inhibition is in % at the dose shown (toxicity tests: loss of growth or viability). Neighbouring rows are from separate reports.